Assay results taken from US7129198B1, “Use of benzotriazole UV absorbers” (Ciba Specialty Chemicals Corporation, priority 1999, dated 2006).

Assay: Demonstration of substantivity: UV absorber taken up by human hair from aqueous solution
Conditions: at pH 9.5, 10 mmol/l aqueous solution, 15 minutes

## CCCCCCCC[N+](CC)(CC)CCCNC(=O)CCc1cc(-n2nc3ccccc3n2)c(O)c(C(C)(C)C)c1.[Br-] [compound of formula (108)]
Damaged (bleached) human hair
  mg of UV absorber per g of hair: 25 (at pH 9.5; damaged hair*) mg of UV absorber per g of hair
Undamaged mid-blonde human hair
  mg of UV absorber per g of hair: 9 (at pH 9.5; undamaged hair*) mg of UV absorber per g of hair
